Assay results published in US8703467B2 (priority 2004, dated 2014).

System: Ross River Virus (strain T48)
Conditions: mice infected intravenously with 10^6 TCID50/ml live RRV; antigen dose at which 50% showed no viremia

Question: Which “PD50 Week 6” value does the source give for Formalin here?
Answer: Its value is 78 ng.
